# Test results: PubChem BioAssay AID720717 (ICCB-Longwood Screening Facility, Harvard Medical School, 2013)
# Only a part is listed here, and it is no random draw. The source made the active and inactive calls.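 How the source made its calls: active means both repeat wells score below -2 in polarization z-score versus plate sample wells, excluding overly bright wells; inactive means the rest.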
# Test system: LANA (ORF73) N-terminal peptide binding to nucleosomes, Human herpesvirus 8
# Experiment: LANA N-terminal peptide–nucleosome interaction blockers – biochemical, fluorescence polarization, FITC-LANA1-23, chicken nucleosomes, primary screen (AID 720717)
# Details: FITC-LANA1-23 / chicken nucleosome fluorescence polarization; stronger effect = lower value
# Outline: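 Assay system: FITC-LANA peptide and chicken nucleosomes; input: 240 nM purified chicken nucleosomes (480 nM peptide binding sites), final; also added: 50 nM FITC-LANA1-23 probe; medium: TEN-BT buffer, pH 7.5; doses: pin-transferred compound, 100 nL; times: 10–45 min, room temperature; technique: fluorescence polarization; replication: duplicates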
row,Structure (SMILES),z-score
1,CCCN1CCC(Nc2cc(OC)cc(OC)c2)CC1,inactive: -1.01
2,CN1CCC(Nc2ccc(F)cc2)CC1,inactive: -0.299
3,O=C1CCN(CCc2ccccc2)CC1,inactive: -0.0245
4,CC(C)(C)OC(=O)N1CCC(Nc2ccccc2)CC1,inactive: -0.254
5,CCN1CCC(Nc2ccc(F)cc2)CC1,inactive: 0.943
6,CCOC(=O)N1CCC(Nc2ccc(F)cc2)CC1,inactive: 0.487
7,O=C1CCN(Cc2ccccc2)CC1,inactive: 0.196
8,CCOC(=O)N1CCC(Nc2cccc(C)c2)CC1,inactive: -1.77
9,CCCN1CCC(Nc2ccc(OC)c(OC)c2)CC1,inactive: -1.53
10,N#CC1(Nc2ccccc2)CCN(Cc2ccccc2)CC1,inactive: -1.29
11,c1ccc(CN2CCC(Nc3ccc4c(c3)OCO4)CC2)cc1,inactive: 1.45
12,NC(=O)C1(Nc2ccc(F)cc2)CCNCC1,inactive: 0.213
